Measured data: PubChem BioAssay AID624099 (ICCB-Longwood, 2012)
Aim: 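Knock-downs relieving repression by E2 of an HPV18 LCR luciferase reporter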 (primary screen). Cell system: human C33A cervical carcinoma cells (HPV-negative) stably expressing BPV1 E2 and an HPV18 LCR luciferase reporter. Reagent: siRNA pool against human genes, 40 nM. Duration: 72 h. Measured: 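HPV18 LCR reporter light per well, converted to plate-wise z-scores that exclude control wells, and averaged over triplicate plates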. Scale: mean z-score and z-score: higher = stronger reporter signal, weaker E2 silencing. Call rule: 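Mean z ≥ 2 together with z ≥ 2 in two or more of the three replicates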.
Shown is one part, drawn at random, of about 21,000 deposited reagents. 497 of them (2.4%) were called active. 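Higher z means weaker E2 silencing; only reporter increases were scored, and knock-downs that hurt cell survival may mask genuine repressor factors.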

What did the screen give for CCDC187?
mean z-score: -0.47; z-score, replicate A: -0.55; z-score, replicate B: -0.53; z-score, replicate C: -0.32; outcome: inactive

What is on record for SNX32?
mean z-score: -0.2; z-score, replicate A: -0.43; z-score, replicate B: -0.48; z-score, replicate C: 0.3; outcome: inactive

How did the screen score SOWAHA?
mean z-score: 0.41; z-score, replicate A: 0.45; z-score, replicate B: 0.59; z-score, replicate C: 0.18; outcome: inactive

What is on record for SNAI2?
mean z-score: -0.05; z-score, replicate A: -0.28; z-score, replicate B: 0.1; z-score, replicate C: 0.04; outcome: inactive

What did the screen give for ARMH4?
mean z-score: 0.54; z-score, replicate A: 1.09; z-score, replicate B: 0.38; z-score, replicate C: 0.17; outcome: inactive

What did the screen give for IER3?
mean z-score: 0.94; z-score, replicate A: 0.59; z-score, replicate B: 1.11; z-score, replicate C: 1.12; outcome: inactive

How did the screen score SCGB1C1?
mean z-score: -1.12; z-score, replicate A: -1.24; z-score, replicate B: -1.14; z-score, replicate C: -0.97; outcome: inactive

2 entries already listed, sorted by “z-score, replicate B”, ascending:
SNAI2 — mean z-score = -0.05; z-score, replicate A = -0.28; z-score, replicate B = 0.1; z-score, replicate C = 0.04; outcome = inactive
SOWAHA — mean z-score = 0.41; z-score, replicate A = 0.45; z-score, replicate B = 0.59; z-score, replicate C = 0.18; outcome = inactive

The results go on.
With AUH, how do the results read?
mean z-score: -0.28; z-score, replicate A: -0.06; z-score, replicate B: -0.47; z-score, replicate C: -0.31; outcome: inactive

For NKRF, how do the results read?
mean z-score: -0.8; z-score, replicate A: -0.7; z-score, replicate B: -0.91; z-score, replicate C: -0.79; outcome: inactive

Which result is listed for TMEM14C?
mean z-score: 0.04; z-score, replicate A: 0.24; z-score, replicate B: -0.12; z-score, replicate C: 0; outcome: inactive

How did the screen score RNF186?
mean z-score: -1.45; z-score, replicate A: -1.36; z-score, replicate B: -1.51; z-score, replicate C: -1.49; outcome: inactive

Which result is listed for TDRD9?
mean z-score: -0.35; z-score, replicate A: -0.32; z-score, replicate B: -0.38; z-score, replicate C: -0.34; outcome: inactive

Which result is listed for PIN4?
mean z-score: 0.6; z-score, replicate A: 0.63; z-score, replicate B: 0.59; z-score, replicate C: 0.59; outcome: inactive

With ADORA1, how do the results read?
mean z-score: -1.4; z-score, replicate A: -1.31; z-score, replicate B: -1.54; z-score, replicate C: -1.35; outcome: inactive

For CPA1, what does the deposit list?
mean z-score: 0.88; z-score, replicate A: 0.61; z-score, replicate B: 1.08; z-score, replicate C: 0.94; outcome: inactive

For SCN10A, what was measured?
mean z-score: -1.19; z-score, replicate A: -1.39; z-score, replicate B: -0.99; z-score, replicate C: -1.2; outcome: inactive

How did the screen score C3orf18?
mean z-score: -0.64; z-score, replicate A: -0.08; z-score, replicate B: -0.7; z-score, replicate C: -1.14; outcome: inactive

What did the screen give for KIAA0319?
mean z-score: 1.21; z-score, replicate A: 1.53; z-score, replicate B: 1.21; z-score, replicate C: 0.89; outcome: inactive

What did the screen give for LOC728626 (retired record)?
mean z-score: 1.29; z-score, replicate A: 1.12; z-score, replicate B: 1.45; z-score, replicate C: 1.31; outcome: inactive

What is on record for LOC388453 (retired record)?
mean z-score: -0.37; z-score, replicate A: -0.24; z-score, replicate B: -0.39; z-score, replicate C: -0.5; outcome: inactive

How did the screen score MRPL15?
mean z-score: -0.96; z-score, replicate A: -1.14; z-score, replicate B: -0.8; z-score, replicate C: -0.94; outcome: inactive
